{"source": "patent US20230285442A1", "about": "“USE OF OLIGOCHITOSANS AND DERIVATIVES THEREOF FOR NEUTRALIZING VIRAL AGENTS” (priority 2020, published 2023)", "key": {"RSV": {"test_system": "RSV", "assay": "NCD1 neutralization (removal) of RSV from culture supernatant, RNA from supernatant and pellet"}, "coxsackievirus": {"test_system": "coxsackievirus", "assay": "NCD1 neutralization (removal) of coxsackievirus from culture supernatant, RNA from supernatant", "settings": "incubated with NCD1 at room temperature for 30 min, centrifuged; RNA from supernatant vs PBS control"}}, "data": [{"substance": "Oligochitosan 10 kDa [NCD1]", "values": [{"measurement": "extent of removal of RSV from the culture supernatant", "setting": "RSV; incubated with NCD1 at room temperature for 30 min, centrifuged, RNA from supernatant vs PBS control", "result": "95-99%"}, {"measurement": "total RNA from pellets representing complexes of NCD1 and RSV", "setting": "RSV; pellet after centrifugation", "result": "viral RNA was recovered from the pellet"}, {"measurement": "extent of removal of coxsackievirus from the culture supernatant", "setting": "coxsackievirus", "result": "95-99%"}]}]}
